Results of unrelated studies side by side (data: NIAID ChemDB).

Common to all: tests in culture; organism: Aspergillus fumigatus

Blank or dashed fields: not listed here.

SMILES | strain | endpoint | method | result
C[C@@H](N1CCN(c2ccc(OC(F)(F)C(F)F)cc2)C1=O)C(O)(Cn1cncn1)c1ccc(F)cc1F | IFO6344 | MIC |  | 0.25 µg/mL
CCC(C)n1ncn(-c2ccc(N3CCN(c4ccc(OC[C@H]5CO[C@](Cn6cncn6)(c6ccc(Cl)cc6Cl)O5)cc4)CC3)cc2)c1=O | 35 isolates | Geometric mean MIC |  | 0.37 µg/mL
CS(=O)(=O)C(F)C(O)(Cn1cncn1)c1ccc(F)cc1F | IFM 40808 | MIC |  | 16 µg/mL
C[C@@H](n1ccn(-c2ccc(C(F)(F)F)cc2)c1=O)C(O)(Cn1cncn1)c1ccc(F)cc1F | TIMM1728 | MIC |  | 4 µg/mL
O=C(/C=C/c1ccc(F)cc1)OC1CCN(CC(O)(Cn2cncn2)c2ccc(F)cc2F)CC1 | 0504656 | MIC80 | broth dilution | 0.514 µM
CCCCCOc1ccc(-c2ccc(-c3ccc(C(=O)N[C@H]4C[C@@H](O)[C@@H](O)NC(=O)[C@@H]5[C@@H](O)[C@@H](C)CN5C(=O)[C@H]([C@H](C)O)NC(=O)[C@H]([C@H](O)[C@@H](O)c5ccc(O)cc5)NC(=O)[C@@H]5C[C@@H](O)CN5C(=O)[C@H]([C@H](C)O)NC4=O)cc3)cc2)cc1 | 92-245 | MFC |  | >50 µg/mL
CCN1CCC(O)(/C=C/c2ccc(Cl)cc2)C(C(=O)/C=C/c2ccc(Cl)cc2)C1 | 28 strains (itraconazole-resistant) | MIC50 |  | 5.84 µg/mL
COc1cc2oc3ccccc3c(=O)c2cc1OC |  | MIC80 |  | 31 µg/mL
C[C@H]1[C@H](O)[C@@H](C)/C=C/C=C/C=C/C=C/C=C/C=C/C=C/[C@H](O[C@@H]2O[C@H](C)[C@@H](O)[C@H](N)[C@@H]2O)C[C@@H]2O[C@](O)(C[C@@H](O)C[C@@H](O)CC[C@H](O)[C@@H](O)C[C@@H](O)CC(=O)O[C@H]1C)C[C@H](O)[C@H]2C(=O)O | 94 isolates | Geometric mean MIC |  | 0.95 µg/mL
COc1cc2oc3ccccc3c(=O)c2c(OC)c1OC |  | MIC80 |  | 62 µg/mL
Cc1cc(NS(=O)(=O)c2ccc(N)cc2)no1 | IFM 48051 | MIC |  | 64 µg/mL
CCOC(=O)c1sc(SC)cc1-c1ccc(F)cc1 | AF-27 | MIC |  | >100 µg/mL
C[C@@H](N1CCN(c2ccc(OC(F)(F)C(F)F)cc2)C1=O)C(O)(Cn1cncn1)c1ccccc1F | TIMM1728 | MIC |  | 0.25 µg/mL
COc1c(O)cc2oc3ccccc3c(=O)c2c1O |  | MIC80 |  | 16 µg/mL
Cc1noc(NS(=O)(=O)c2ccc(N)cc2)c1C | IFM 48051 | MIC |  | 128 µg/mL
CCOC(=O)c1sc(SC)c(C(=O)OCC)c1O | AF-27 | MIC |  | >100 µg/mL
COc1cc(NS(=O)(=O)c2ccc(N)cc2)ncn1 | IFM 51126 | MIC |  | 64 µg/mL
O=C(CSc1nnc(-c2ccc3ncccc3c2)o1)Nc1ccc(Cl)cc1 |  | MIC | agar | 100 µg/mL
O=Cc1cc(-c2cccc(Cl)c2)no1 | Clinical isolates | EC50 |  | 22.16 µg/mL
C[C@H]1[C@H](O)[C@@H](C)/C=C/C=C/C=C/C=C/C=C/C=C/C=C/[C@H](O[C@@H]2O[C@H](C)[C@@H](O)[C@H](N)[C@@H]2O)C[C@@H]2O[C@](O)(C[C@@H](O)C[C@@H](O)CC[C@H](O)[C@@H](O)C[C@@H](O)CC(=O)O[C@H]1C)C[C@H](O)[C@H]2C(=O)O | 35 isolates | MIC50 |  | 1 µg/mL
CCCS(=O)(=O)C(F)(F)[C@](O)(Cn1cncn1)c1ccc(F)cc1F | IFM 40808 | MIC |  | 4 µg/mL
Cc1ccc(/C=C/C(=O)OC2CCN(CC(O)(Cn3cncn3)c3ccc(F)cc3F)CC2)cc1 | 0504656 | MIC80 | broth dilution | 0.518 µM
Cc1cc(NS(=O)(=O)c2ccc(N)cc2)nc(C)n1 | IFM 41362 | MIC |  | ≥256 µg/mL
Cc1onc(-c2cccc(Br)c2)c1C=O | Clinical isolates | MIC |  | 12.5 µg/mL
COc1c(O)ccc2oc3cccc(O)c3c(=O)c12 |  | MIC80 |  | 31 µg/mL
O=C(/C=C/c1cccc(Cl)c1)OC1CCN(CC(O)(Cn2cncn2)c2ccc(F)cc2F)CC1 | 0504656 | MIC80 | broth dilution | 1.991 µM
C[C@@H](N1CCN(c2ccc(OC(F)(F)F)cc2)C1=O)C(O)(Cn1cncn1)c1ccc(F)cc1F | TIMM1728 | MIC |  | 0.5 µg/mL
Cc1ccc(C(C)C)cc1 | F05 | MLC |  | >20 µg/mL
C[C@H]1[C@H](O)[C@@H](C)/C=C/C=C/C=C/C=C/C=C/C=C/C=C/[C@H](O[C@@H]2O[C@H](C)[C@@H](O)[C@H](N)[C@@H]2O)C[C@@H]2O[C@](O)(C[C@@H](O)C[C@@H](O)CC[C@H](O)[C@@H](O)C[C@@H](O)CC(=O)O[C@H]1C)C[C@H](O)[C@H]2C(=O)O | MF5668 | MIC |  | 0.25 µg/mL
CC(=O)Nc1ccc2nc(NC(=O)CSc3nnc(-c4ccc5ncccc5c4)o3)sc2c1 |  | MIC | agar | 100 µg/mL
CC(=O)OC1CCN(CC(O)(Cn2cncn2)c2ccc(F)cc2F)CC1 | 0504656 | MIC80 | broth dilution | 10.5 µM
O=Cc1cc(-c2cccc(Br)c2)no1 | Clinical isolates | MIC |  | >50 µg/mL
O=C(CSc1nnc(-c2ccc3ncccc3c2)o1)Nc1ccccc1 |  | MIC | agar | 100 µg/mL
O=Cc1cc(-c2ccc(F)cc2)no1 | Clinical isolates | MIC |  | 50 µg/mL
CC(C(O)(Cn1cncn1)c1ccc(F)cc1F)S(C)(=O)=O | IFM 40808 | MIC |  | >64 µg/mL
O=C(CC1=Nc2ccccc2C1)OC1CCN(CC(O)(Cn2cncn2)c2ccc(F)cc2F)CC1 | 0504656 | MIC80 | broth dilution | 8.078 µM
C[C@@H](n1ccn(-c2ccc(OC(F)(F)F)cc2)c1=O)C(O)(Cn1cncn1)c1ccc(F)cc1F | IFO6344 | MIC |  | 2 µg/mL
CCOC(=O)c1sc2cc(-c3cccc([N+](=O)[O-])c3)oc(=O)c2c1N | AF-27 | MIC |  | >100 µg/mL
N#Cc1ccc2nc(NC(=O)CSc3nnc(-c4ccc5ncccc5c4)o3)sc2c1 |  | MIC | agar | 50 µg/mL
CCOC(=O)c1sc2cc(-c3ccc(F)cc3)oc(=O)c2c1N | AF-27 | MIC |  | >100 µg/mL
C[C@@H](n1ccn(-c2ccc(OCC(F)(F)C(F)F)cc2)c1=O)C(O)(Cn1cncn1)c1ccccc1F | TIMM1728 | MIC |  | 2 µg/mL
O=C(/C=C/c1ccc([N+](=O)[O-])cc1)OC1CCN(CC(O)(Cn2cncn2)c2ccc(F)cc2F)CC1 | 0504656 | MIC80 | broth dilution | 0.487 µM
C[C@H]1[C@H](O)[C@@H](C)/C=C/C=C/C=C/C=C/C=C/C=C/C=C/[C@H](O[C@@H]2O[C@H](C)[C@@H](O)[C@H](N)[C@@H]2O)C[C@@H]2O[C@](O)(C[C@@H](O)C[C@@H](O)CC[C@H](O)[C@@H](O)C[C@@H](O)CC(=O)O[C@H]1C)C[C@H](O)[C@H]2C(=O)O | 50 isolates | Geometric mean MIC |  | 0.38 µg/mL
COc1ccc(/C=C/C(=O)OC2CCN(CC(O)(Cn3cncn3)c3ccc(F)cc3F)CC2)cc1OC | 0504656 | MIC80 | broth dilution | 1.893 µM
O=C(CSc1nnc(-c2ccc3ncccc3c2)o1)Nc1nc2ccc(F)cc2s1 |  | MIC | agar | 25 µg/mL
O=Cc1cc(-c2ccc(Cl)cc2Cl)no1 | Clinical isolates | EC50 |  | 27.5 µg/mL

For reference, 4 entries again:

SMILES	strain	endpoint	method	result
C[C@@H](N1CCN(c2ccc(OC(F)(F)C(F)F)cc2)C1=O)C(O)(Cn1cncn1)c1ccc(F)cc1F	IFO6344	MIC		0.25 µg/mL
Cc1cc(NS(=O)(=O)c2ccc(N)cc2)no1	IFM 48051	MIC		64 µg/mL
Cc1ccc(C(C)C)cc1	F05	MLC		>20 µg/mL
O=C(/C=C/c1ccc([N+](=O)[O-])cc1)OC1CCN(CC(O)(Cn2cncn2)c2ccc(F)cc2F)CC1	0504656	MIC80	broth dilution	0.487 µM

ECn: concentration that inhibits the pathogen or its effect by n%. MIC50, MIC90 and the like: level of inhibition, or share of isolates inhibited. Lines come from different laboratories, so protocols vary.